# Laboratory results reported in publication PMC1964878.
# Key:
# [1] = test system: O=C(O)[C@@H]1C[C@@H](O)CN1; test: purified protein; details: 37.0 °C
# [2] = test system: O=C(O)[C@H]1C[C@@H](O)CN1; test: purified protein; details: 37.0 °C
Substance,Km [1] [mM],Km [2] [mM]
"BaHyPRE (BaSeq1, PrpA) (Brucella abortus 2308)",9.8,10.8
BmHyPRE (Brucella melitensis bv. 1 str. 16M),9.0,12.7
BpHyPRE (Burkholderia pseudomallei K96243),14.4,17.1
BsHyPRE (Brucella suis 1330),7.6,10.8
